# Results taken from patent publication US20130065857A1, “NOVEL DXR INHIBITORS FOR ANTIMICROBIAL THERAPY” (Baylor College of Medicine, priority 2009, published 2013).
# Tested on: E. coli, Pseudomonas aeruginosa, Bacillus anthracis and Micrococcus luteus
# Assay: Antibacterial activity assay (MIC), stated over all four bacteria
# Format: cell-based
# Conditions: span over four bacterial species; tested form: disodium salt
smiles,measurement,value
O=P(O)(O)CCc1ccc(O)c(O)c1,MICs over the four bacteria,≥ 1000 µM
